Reference: PubChem BioAssay AID624099 (ICCB-Longwood, 2012)
Purpose: 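Knock-downs relieving repression by E2 of an HPV18 LCR luciferase reporter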 (primary screen). Cells: human C33A cervical carcinoma cells (HPV-negative) stably expressing BPV1 E2 and an HPV18 LCR luciferase reporter. Knock-down reagent: siRNA pool against human genes, 40 nM. Time to read-out: 72 h. Detection: 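HPV18 LCR reporter light per well, converted to plate-wise z-scores that exclude control wells, and averaged over triplicate plates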. Scale: mean z-score and z-score: higher = stronger reporter signal, weaker E2 silencing. Hit rule: 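Hit if mean z-score reaches 2 and two or more of three replicate z-scores also reach 2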.
Shown is one part, drawn at random, of about 21,000 reagents. In the full data, 497 (2.4%) were called active. 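Higher z means weaker E2 silencing; only reporter increases were scored, and knock-downs that hurt cell survival may mask genuine repressor factors.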 No sequences are given here.

ARHGEF7 (Rho guanine nucleotide exchange factor 7)
- mean z-score: -0.56
- z-score, replicate A: -0.63
- z-score, replicate B: -0.48
- z-score, replicate C: -0.57
- activity call: inactive

ELOVL5 (ELOVL fatty acid elongase 5)
- mean z-score: -1.24
- z-score, replicate A: -1.33
- z-score, replicate B: -1.26
- z-score, replicate C: -1.13
- activity call: inactive

NCAM2 (neural cell adhesion molecule 2)
- mean z-score: -0.27
- z-score, replicate A: -0.21
- z-score, replicate B: -0.37
- z-score, replicate C: -0.22
- activity call: inactive

LINC00701 (long independently transcribed non-coding RNA 701)
- mean z-score: -0.4
- z-score, replicate A: -0.22
- z-score, replicate B: -0.61
- z-score, replicate C: -0.38
- activity call: inactive

PRIMPOL (primase and DNA directed polymerase)
- mean z-score: -0.09
- z-score, replicate A: -0.32
- z-score, replicate B: -0.03
- z-score, replicate C: 0.08
- activity call: inactive

TSPAN17 (tetraspanin 17)
- mean z-score: -0.6
- z-score, replicate A: -0.43
- z-score, replicate B: -0.65
- z-score, replicate C: -0.72
- activity call: inactive

2 entries from above, arranged by “z-score, replicate A”, lowest first.
LINC00701 (long independently transcribed non-coding RNA 701)
- mean z-score: -0.4
- z-score, replicate A: -0.22
- z-score, replicate B: -0.61
- z-score, replicate C: -0.38
- activity call: inactive

NCAM2 (neural cell adhesion molecule 2)
- mean z-score: -0.27
- z-score, replicate A: -0.21
- z-score, replicate B: -0.37
- z-score, replicate C: -0.22
- activity call: inactive

Further results follow:
LOC389049 (retired record)
- mean z-score: -0.51
- z-score, replicate A: -0.55
- z-score, replicate B: -0.9
- z-score, replicate C: -0.09
- activity call: inactive

LOC389318 (retired record)
- mean z-score: 1.05
- z-score, replicate A: 0.87
- z-score, replicate B: 1.1
- z-score, replicate C: 1.17
- activity call: inactive

INTS6 (integrator complex subunit 6)
- mean z-score: 1.9
- z-score, replicate A: 2.08
- z-score, replicate B: 2.19
- z-score, replicate C: 1.42
- activity call: inactive

SDSL (serine dehydratase like)
- mean z-score: -2.13
- z-score, replicate A: -2.04
- z-score, replicate B: -1.88
- z-score, replicate C: -2.46
- activity call: inactive

ARRB1 (arrestin beta 1)
- mean z-score: 0.74
- z-score, replicate A: 0.6
- z-score, replicate B: 1.11
- z-score, replicate C: 0.52
- activity call: inactive

ARG2 (arginase 2)
- mean z-score: -0.38
- z-score, replicate A: -0.31
- z-score, replicate B: -0.2
- z-score, replicate C: -0.62
- activity call: inactive
